System: RSV-GFP
Assay type: cell-based, human respiratory syncytial virus (RSV)
Settings: A549 pre-treated overnight, 25 nM ouabain or 20 μM PST2238, RSV-GFP MOI=1, harvested 24 h p.i.

With C[C@@H]1O[C@@H](O[C@H]2C[C@@H](O)[C@]3(CO)[C@@H]4[C@@H](CC[C@]3(O)C2)[C@@]2(O)CCC(C3=CC(=O)OC3)[C@@]2(C)C[C@@H]4O)[C@H](O)[C@H](O)[C@H]1O (stereo partly drawn) [ouabain, (1β,3β,5β,11α)-3-[(6-Deoxy-α-L-mannopyranosyl)oxy]-1,5,11,14,19-pentahydroxycard-20(22)-enolide] the “reduction of virus yield” value was about 3.0 log10.
C[C@]12CC[C@H](O)C[C@H]1CC[C@@H]1[C@@H]2CC[C@]2(C)[C@@](O)(c3ccoc3)CC[C@]12O [PST2238, (3β,5β,14β)-21,23-Epoxy-24-norchola-20,22-diene-3,14,17-triol] was tested, and the “reduction of virus yield” value was 2.0 log10.

Reference: US11337988B2, “Use of ouabain antagonists to inhibit viral infection” (priority 2018, dated 2022)
